Literature values in US20070123520A1 (priority 2005, published 2007).

Tested on: H5N1 virus
Details: H5N1 virus currently infecting birds in Asia

SMILES	resistance of H5N1 virus to the drug
NC12CC3CC(CC(C3)C1)C2 [amantadine]	resistant
CC(N)C12CC3CC(CC(C3)C1)C2 (centres unmarked) [rimantadine]	resistant
